Results as given in ChEMBL document CHEMBL4342517, “Design, Synthesis, and Mechanism Study of Benzenesulfonamide-Containing Phenylalanine Derivatives as Novel HIV-1 Capsid Inhibitors with Improved Antiviral Activities” (J Med Chem, 2020).

System: TZM
Assay: Cytotoxicity in uninfected human TZM-bl assessed as reduction in cell viability incubated for 1 day by Cyto-tox-Glo cytotoxicity assay
Assay type: cell-based
Details: 24 h

Compound | CC50 [µM]
COc1ccc(N(C)C(=O)[C@H](Cc2ccccc2)NC(=O)CN2CCN(S(=O)(=O)c3ccccc3[N+](=O)[O-])CC2=O)cc1 | > 32.8

System: not listed separately
Assay: in vitro
Details: human, TZM-bl cells

Compound | selectivity ratio at 24 h
COc1ccc(N(C)C(=O)[C@H](Cc2ccccc2)NC(=O)CN2CCN(S(=O)(=O)c3cccc([N+](=O)[O-])c3)CC2=O)cc1 | > 48.8
COc1ccc(N(C)C(=O)[C@H](Cc2ccccc2)NC(=O)CN2CCN(S(=O)(=O)c3ccc(Cl)cc3)CC2=O)cc1 | > 31.7
COc1ccc(N(C)C(=O)[C@H](Cc2ccccc2)NC(=O)CNS(=O)(=O)c2ccc(C)cc2)cc1 | > 6.45
COc1ccc(N(C)C(=O)[C@H](Cc2ccccc2)NC(=O)CNS(=O)(=O)c2cccc([N+](=O)[O-])c2)cc1 | > 4.26
COc1ccc(N(C)C(=O)[C@H](Cc2ccccc2)NC(=O)CN2CCN(S(=O)(=O)c3ccccc3F)CC2=O)cc1 | > 71.4
COc1ccc(N(C)C(=O)[C@H](Cc2ccccc2)NC(=O)CN2CCN(S(=O)(=O)c3ccccc3N)CC2=O)cc1 | > 64.5
COc1ccc(N(C)C(=O)[C@H](Cc2ccccc2)NC(=O)CNS(=O)(=O)c2ccc(N)cc2)cc1 | > 6.06
COc1ccc(N(C)C(=O)[C@H](Cc2ccccc2)NC(=O)CNS(=O)(=O)c2ccc(Cl)cc2)cc1 | > 3.92
COc1ccc(N(C)C(=O)[C@H](Cc2ccccc2)NC(=O)CNS(=O)(=O)c2ccc(OC)cc2)cc1 | > 3.77
COc1ccc(N(C)C(=O)[C@H](Cc2ccccc2)NC(=O)CNS(=O)(=O)c2cc(C)cc(C)c2)cc1 | > 4.26
COc1ccc(N(C)C(=O)[C@H](Cc2ccccc2)NC(=O)CN2CCN(S(=O)(=O)c3ccccc3)CC2=O)cc1 | > 95.2
COc1ccc(N(C)C(=O)[C@H](Cc2ccccc2)NC(=O)CNS(=O)(=O)c2ccc(F)cc2)cc1 | > 5.88
COc1ccc(N(C)C(=O)[C@H](Cc2ccccc2)NC(=O)CN2C(=O)N(CC(=O)N[C@@H](Cc3ccccc3)C(=O)N(C)c3ccc(OC)cc3)S(=O)(=O)c3cc(Br)ccc32)cc1 | > 3.85
COc1ccc(N(C)C(=O)[C@H](Cc2ccccc2)NC(=O)CN2C(=O)Nc3ccc(OC)cc3S2(=O)=O)cc1 | > 7.41
COc1ccc(N(C)C(=O)[C@H](Cc2ccccc2)NC(=O)CNS(=O)(=O)c2ccccc2N)cc1 | > 4.44
COc1ccc(N(C)C(=O)[C@H](Cc2ccccc2)NC(=O)CN2CCN(S(=O)(=O)c3ccccc3[N+](=O)[O-])CC2=O)cc1 | > 32.8
COc1ccc(N(C)C(=O)[C@H](Cc2ccccc2)NC(=O)CN2CCN(S(=O)(=O)c3ccc(OC)cc3)CC2=O)cc1 | > 52.6
COc1ccc(N(C)C(=O)[C@H](Cc2ccccc2)NC(=O)CNS(=O)(=O)c2c(C(C)C)cc(C(C)C)cc2C(C)C)cc1 | > 4.17
COc1ccc(N(C)C(=O)[C@H](Cc2ccccc2)NC(=O)CNS(=O)(=O)c2ccc(Br)cc2)cc1 | > 4.35
COc1ccc(N(C)C(=O)[C@H](Cc2ccccc2)NC(=O)CN2C(=O)N(CC(=O)N[C@@H](Cc3ccccc3)C(=O)N(C)c3ccc(OC)cc3)S(=O)(=O)c3cc(Cl)ccc32)cc1 | > 4.76
COc1ccc(N(C)C(=O)[C@H](Cc2ccccc2)NC(=O)CNS(=O)(=O)c2ccccc2[N+](=O)[O-])cc1 | > 4.35
COc1ccc(N(C)C(=O)[C@H](Cc2ccccc2)NC(=O)CNS(=O)(=O)c2c(C)cc(C)cc2C)cc1 | > 3.57
COc1ccc(N(C)C(=O)[C@H](Cc2ccccc2)NC(=O)CNS(=O)(=O)c2cccc(N)c2)cc1 | > 4.88
COc1ccc(N(C)C(=O)[C@H](Cc2ccccc2)NC(=O)CN2C(=O)N(CC(=O)N[C@@H](Cc3ccccc3)C(=O)N(C)c3ccc(OC)cc3)S(=O)(=O)c3cc(F)ccc32)cc1 | > 6.06
COc1ccc(N(C)C(=O)[C@H](Cc2ccccc2)NC(=O)CN2CCN(S(=O)(=O)c3cccc(N)c3)CC2=O)cc1 | > 105
COc1ccc(N(C)C(=O)[C@H](Cc2ccccc2)NC(=O)CN2C(=O)Nc3ccc(C)cc3S2(=O)=O)cc1 | > 6.25

System: not listed separately
Assay: in vitro
Details: human, MT4 cells

Compound | selectivity ratio
COc1ccc(N(C)C(=O)[C@H](Cc2ccccc2)NC(=O)CN2CCN(S(=O)(=O)c3ccccc3)CC2=O)cc1 | 153

System: not listed separately
Assay: in vitro
Details: human, MT4 cells
Remark: another data set of the same source

Compound | selectivity ratio
COc1ccc(N(C)C(=O)[C@H](Cc2ccccc2)NC(=O)CN2CCN(S(=O)(=O)c3ccccc3)CC2=O)cc1 | 3390
